Experimental data taken from US20240398757A1 (COCRYSTAL PHARMA, INC., priority 2022, published 2024).
The match of structure and compound is tentative.

Target: SARS2 protease (Severe acute respiratory syndrome coronavirus 2, UniProt P0DTD1)
Assay: SARS-CoV-2 protease inhibition assay (SARS2 FRET protease assay)
Details: SARS2 protease 30 nM, peptide substrate 1.3 μM, 120 minutes at 37° C., compounds 20 μM to 0.075 nM
Experimental: Viral protease assays: The antiviral activities of inhibitors were determined by FRET (Fluorescence Resonance Energy Transfer) assay. Purified viral protease was incubated with the protease substrate peptide (Edans-DFHLQ/GP-Dabcyl) and inhibitor, and IC50 values were subsequently determined by the fluorescence signals.
The SARS2 FRET protease assay was performed in 20 mM HEPES-Na pH 7, 120 mM NaCl, 0.4 mM EDTA, 0.01% Triton, 5% glycerol, and 4 mM DTT. A self-quenching peptide substrate 5-FAM-TSA VLQ SGF RKK (STAMRA)-NH2 was custom synthesized by Anaspec. Compounds were diluted in 4-fold serial dilutions to final concentrations of 20 μM to 0.075 nM. SARS2 protease was added to a final concentration of 30 nM, depending on the enzyme activity level, and the peptide substrate was added to a final concentration of 1.3 μM. The assay was incubated 120 minutes at 37° C. and read in a Perkin Elmer Envision with excitation at 492 nm and emission measurement at 518 nm.

## CCCC[C@H](NC(=O)OC(c1cccnc1)C(F)(F)c1cccc(Cl)c1)C(=O)N[C@H](C=O)C[C@@H]1CCNC1=O (stereo partly shown)
  IC50: 0.4 nM
